A mixed list of measured activities; the numbers were collected in NIAID ChemDB.

Common to all: whole-cell or culture tests; agent: Candida albicans

MIC50, MIC90 and the like: level of inhibition, or share of isolates inhibited. a–b is a range or a potency band. An empty or dashed field is not shown. Conditions beyond the fields shown may differ between rows. ECn: concentration that inhibits the pathogen or its effect by n%.

smiles	strain or isolate	read by	conditions	read-out	value
CC(=O)OC(CCCC12OC(C(=O)O)C(O)(C(=O)O)C(C(=O)O)(O1)C(OC(=O)CCCCCC/C=C/c1ccccc1)C2O)C(C)C/C=C/c1ccccc1	427	-	-	MIC	1.5 µg/mL
Cc1cc(O)c2c(c1)C(c1ccc3cc4c(c(O)c3c1O)C(=O)CC(C)(O)C4)c1cccc(O)c1C2=O	-	-	-	MIC	8 µg/mL
Cc1ccc(-n2c(-c3ccncc3)nsc2=O)cc1	-	-	-	MIC	0.09 µg/mL
Cc1c(O)cccc1C(=O)N[C@@H](CSc1ccccc1)[C@H](O)CN1C[C@H]2CCCC[C@H]2C[C@H]1C(=O)NC(C)(C)C	I74A	-	-	MIC	>64 µg/mL
Cc1nc2c(sc(=S)n2-c2ccccc2)c(=O)[nH]1	DSM 70443	-	-	MIC	>200 µg/mL
Nc1[nH]c(=O)ncc1F	19 strains	-	-	MIC90	0.5 µg/mL
CC1(O)CC(=O)c2c(cc3ccc(-c4c5c(c(O)c6c(O)cccc46)C(=O)CC(C)(O)C5)c(O)c3c2O)C1	-	-	-	MIC	8 µg/mL
C[C@@H]1[C@H](O)[C@@H](C)/C=C/C=C/C=C/C=C/C=C/C=C/C=C/[C@H](O[C@@H]2O[C@H](C)[C@@H](O)[C@H](N)[C@@H]2O)C[C@@H]2O[C@](O)(C[C@@H](O)C[C@@H](O)[C@H](O)CC[C@@H](O)C[C@@H](O)CC(=O)O[C@H]1C)C[C@H](O)[C@H]2C(=O)O	-	resazurin	-	EC50	0.13 µM
C[C@H]1[C@H](O)[C@@H](C)/C=C/C=C/C=C/C=C/C=C/C=C/C=C/[C@H](O[C@@H]2O[C@H](C)[C@@H](O)[C@H](N)[C@@H]2O)C[C@@H]2O[C@](O)(C[C@@H](O)C[C@@H](O)CC[C@H](O)[C@@H](O)C[C@@H](O)CC(=O)O[C@H]1C)C[C@H](O)[C@H]2C(=O)O	R89-335	-	-	MIC	1 µg/mL
O=C1CSC(N2N=C(c3ccccc3O)CC2c2cc3ccccc3nc2Cl)=N1	MTCC 227	-	-	MIC100	1000 µg/mL
CCC(C)n1ncn(-c2ccc(N3CCN(c4ccc(OC[C@H]5CO[C@](Cn6cncn6)(c6ccc(Cl)cc6Cl)O5)cc4)CC3)cc2)c1=O	-	-	-	MIC50	0.063 µg/mL
C[C@]1(C(=O)O)CCC[C@]2(C)C3CC(=O)O[C@@]3(CI)C=C[C@@H]12	CECT 1394	-	-	MIC	>100 µg/mL
NC1C2CC3CC(C2)CC1C3	-	-	biofilm	EC50	5 µM
Cc1nn(-c2ccccc2)c2c1C(c1ccccc1)C(C#N)=C(N)O2	MTCC 227	-	-	MIC	500 µg/mL
CC1=CC2OC(=O)[C@@]3(C)CCC[C@@](C)([C@@H]23)[C@H]1CC=O	CECT 1394	-	-	MIC	>100 µg/mL
CCC(C)CC(C)CCCCCCCCC(=O)N[C@@H]1C[C@@H](O)[C@@H](O)NC(=O)[C@@H]2[C@@H](O)CCN2C(=O)[C@H]([C@@H](O)CCN)NC(=O)[C@H]([C@H](O)[C@@H](O)c2ccc(O)cc2)NC(=O)[C@@H]2C[C@@H](O)CN2C(=O)[C@H]([C@H](C)O)NC1=O	40 isolates	-	-	MIC	0.25 µg/mL
CCCCCOc1ccc(-c2cc(-c3ccc(C(=O)N[C@H]4C[C@@H](O)[C@@H](O)NC(=O)[C@@H]5[C@@H](O)[C@@H](C)CN5C(=O)[C@H]([C@H](O)CC(N)=O)NC(=O)[C@H]([C@H](O)[C@@H](O)c5ccc(O)c(OS(=O)(=O)O)c5)NC(=O)[C@@H]5C[C@@H](O)CN5C(=O)[C@H]([C@@H](C)O)NC4=O)cc3)no2)cc1	5 isolates fluconazole-susceptible	-	-	Geometric mean MIC	0.01 µg/mL
NC(N)=NCCc1ccc(OCCC(c2ccccc2)(c2ccccc2)c2ccccc2)cc1	CAF2-1	-	-	MIC80	5–10 µg/mL
O=C(NN1C(=O)/C(=C/c2cc3ccccc3nc2Cl)N=C1c1ccccc1)c1ccccc1	MTCC 227	broth dilution	-	MIC	100 µg/mL
CCC(C)n1ncn(-c2ccc(N3CCN(c4ccc(OC[C@H]5CO[C@](Cn6cncn6)(c6ccc(Cl)cc6Cl)O5)cc4)CC3)cc2)c1=O	-	-	-	Mean MIC50	0.74 µg/mL
CCOC(=O)c1ccc2c(c1)nc(-c1ccc(C(N)=NCc3ccc(Cl)cc3)cc1)n2Cc1ccc(Cl)cc1Cl	ATCC 10231	-	-	MIC	12.5 µg/mL
O=c1snc(-c2ccccn2)n1-c1ccccc1	-	-	-	MIC	0.05 µg/mL
O=C1CSC(N2N=C(c3ccccc3)CC2c2cc3ccccc3nc2Cl)=N1	MTCC 227	-	-	MIC100	1000 µg/mL
C[C@@H]1[C@@H](COCC(=O)O)C[C@@H](O[C@H]2[C@H](O)[C@@H](N(Cc3ccccc3)CC(O)C[N+](C)(C)C)[C@H](O[C@H]3[C@H](O)[C@@H](N(Cc4ccccc4)CC(O)C[N+](C)(C)C)[C@H](C)O[C@@H]3COCC(=O)O)O[C@@H]2COCC(=O)O)[C@H](N(Cc2ccccc2)CC(O)C[N+](C)(C)C)[C@H]1O	RCMB 05031	broth dilution	-	MIC	35.25 µg/mL
O=C(NN1C(=O)/C(=C/c2cc3ccccc3nc2Cl)N=C1c1ccccc1)c1ccccc1O	MTCC 227	broth dilution	-	MIC	500 µg/mL
Cn1c(-c2ccccn2)noc1=S	-	-	-	MIC	0.51 µg/mL
COC(=O)[C@@]1(C)CCC[C@]2(C)C3=CC(=O)OCC3C=C[C@@H]12	CECT 1394	-	-	MIC	<6.25 µg/mL
CC(C)(C)C1CCC(CN2C3=NC[C@H](CC4CCCCC4)N3C[C@@H]2C2CCCCC2)CC1	ATCC 10231	-	-	MIC	8–16 µg/mL
CC[C@@H]([C@H](C)O)n1ncn(-c2ccc(N3CCN(c4ccc(OC[C@@H]5CO[C@@](Cn6cncn6)(c6ccc(F)cc6F)C5)cc4)CC3)cc2)c1=O	156 isolates	-	-	MIC50	≤0.004 µg/mL
O=C(NN1C(=O)/C(=C/c2cc3ccccc3nc2Cl)N=C1c1ccccc1)c1ccc([N+](=O)[O-])cc1	MTCC 227	broth dilution	-	MIC	100 µg/mL
C[C@@H](c1ncncc1F)[C@](O)(Cn1cncn1)c1ccc(F)cc1F	-	-	-	MIC90	0.063 µg/mL
C[C@@]12CCC[C@]3(C)C4=CC(=O)OC(O)C4C=C(OC1=O)[C@@H]23	CECT 1394	-	-	MIC	>25 µg/mL
Cc1nc2c(sc(=S)n2C2CC2)c(=O)[nH]1	DSM 70443	-	-	MIC	>200 µg/mL
CCOC(=O)c1ccc2c(c1)nc(-c1ccc(C(=O)NN(CC)CC)cc1)n2Cc1ccc(Cl)cc1Cl	ATCC 10231	-	-	MIC	25 µg/mL
Cc1nc(Cl)c2sc(=S)n(-c3ccccc3)c2n1	DSM 70443	-	-	MIC	180 µg/mL
C[C@@H]1[C@@H](COCC(=O)O)C[C@@H](O[C@H]2[C@H](O)[C@@H](N(Cc3ccc(Br)cc3)CC(O)C[N+](C)(C)C)[C@H](O[C@H]3[C@H](O)[C@@H](N(Cc4ccc(Br)cc4)CC(O)C[N+](C)(C)C)[C@H](C)O[C@@H]3COCC(=O)O)O[C@@H]2COCC(=O)O)[C@H](N(Cc2ccc(Br)cc2)CC(O)C[N+](C)(C)C)[C@H]1O	RCMB 05031	broth dilution	-	MIC	15.25 µg/mL
Cc1nc2c(sc(=S)n2-c2ccccc2)c(=O)n1C	DSM 70443	-	-	MIC	160 µg/mL
Cc1nn(-c2ccccc2)c2c1C(c1cccc(Br)c1)c1c(nc(=O)[nH]c1N)O2	MTCC 227	-	-	MIC	250 µg/mL
CCN(C)NC(=O)Cc1nc2cc(C(=O)OC)ccc2n1Cc1ccc(Cl)cc1	ATCC 10231	-	-	MIC	>50 µg/mL
CCC(C)CC(C)CCCCCCCCC(=O)N[C@H]1C[C@@H](O)[C@@H](OCCN)NC(=O)[C@@H]2C[C@@H](O)CN2C(=O)[C@H]([C@H](O)CC(N)=O)NC(=O)[C@H]([C@H](O)[C@@H](O)c2ccc(O)cc2)NC(=O)[C@@H]2C[C@@H](O)CN2C(=O)[C@H]([C@@H](C)O)NC1=O	40 isolates	-	-	MIC	8–32 µg/mL
CC[C@@H]([C@H](C)O)n1ncn(-c2ccc(N3CCN(c4ccc(OC[C@@H]5CO[C@@](Cn6cncn6)(c6ccc(F)cc6F)C5)cc4)CC3)cc2)c1=O	660 isolates	-	-	MIC90	0.06 µg/mL
C/C(Cl)=C/C=C/C=C/C=C/C=C/C(O)=C1\C(=O)[C@H](CC(N)=O)N(C2OC[C@@H](O)[C@H](O)[C@@H]2O[C@@H]2OC[C@@H](O[C@@H]3O[C@H](C)[C@@H](O)[C@@H]3O)[C@@H](O)[C@@H]2O)C1=O	Amphotericin resistant (ATCC 90873)	-	-	MIC100	31.25 µg/mL
CCCn1c(-c2ccccn2)noc1=S	-	-	-	MIC	0.45 µg/mL
CCOC(=O)c1ccc2nc(-c3ccc(C(N)=NCCc4ccccc4)cc3)[nH]c2c1	ATCC 10231	-	-	MIC	50 µg/mL
O=C1CSC(N2N=C(c3ccc(F)cc3)CC2c2cc3ccccc3nc2Cl)=N1	MTCC 227	-	-	MIC100	250 µg/mL
COC(=O)[C@@]1(C)CCC[C@]2(C)c3cc(=O)occ3C=C[C@@H]12	CECT 1394	-	-	MIC	>100 µg/mL
C[C@@H]1[C@@H](COCC(=O)O)C[C@@H](O[C@H]2[C@H](O)[C@@H](N(Cc3ccc([N+](=O)[O-])cc3)CC(O)C[N+](C)(C)C)[C@H](O[C@H]3[C@H](O)[C@@H](N(Cc4ccc([N+](=O)[O-])cc4)CC(O)C[N+](C)(C)C)[C@H](C)O[C@@H]3COCC(=O)O)O[C@@H]2COCC(=O)O)[C@H](N(Cc2ccc([N+](=O)[O-])cc2)CC(O)C[N+](C)(C)C)[C@H]1O	RCMB 05031	broth dilution	-	MIC	6.5 µg/mL
Cc1ccc(-n2c(-c3ccccc3)nsc2=S)cc1	-	-	-	MIC	0.09 µg/mL
CCOc1ccc2nc3cc(N=C4NC(=O)/C(=C\c5ccc([N+](=O)[O-])cc5)S4)ccc3c(N)c2c1	ATCC 60193	broth dilution	-	MFC	1000 µM
CCCCCCCCCCSCC(O)C(=O)O	ATCC 60193	-	-	MIC	0.00104 µM
CC(C)(C)C1CCC(CN2C3=NC[C@H](CC4CCCCC4)N3C[C@H]2CC2CCCCC2)CC1	ATCC 10231	-	-	EC50	4.4 µg/mL
S=c1onc(-c2ccccn2)n1-c1ccccc1	-	-	-	MIC	0.39 µg/mL
Nc1[nH]c(=O)ncc1F	12 isolates fluconazole-resistant	-	-	Geometric mean MIC	0.454 µg/mL
CCCCCCCCCCCCCCCCCCCCCC[C@H](O)CCCCCC	-	broth dilution	-	MIC	500 µM
C[C@@H]1[C@@H](COCC(=O)O)C[C@@H](O[C@H]2[C@H](O)[C@@H](N(Cc3ccc(Cl)cc3)CC(O)C[N+](C)(C)C)[C@H](O[C@H]3[C@H](O)[C@@H](N(Cc4ccc(Cl)cc4)CC(O)C[N+](C)(C)C)[C@H](C)O[C@@H]3COCC(=O)O)O[C@@H]2COCC(=O)O)[C@H](N(Cc2ccc(Cl)cc2)CC(O)C[N+](C)(C)C)[C@H]1O	RCMB 05031	broth dilution	-	MIC	25 µg/mL
O=C(NN1C(=O)/C(=C/c2cc3ccccc3nc2Cl)N=C1c1ccccc1)c1cc(Cl)ccc1Cl	MTCC 227	broth dilution	-	MIC	100 µg/mL
Cc1nn(-c2ccccc2)c2c1C(c1ccc(Cl)cc1)c1c(nc(=O)[nH]c1N)O2	MTCC 227	-	-	MIC	250 µg/mL
C1CCC(C[C@H]2CN3C(=NC[C@@H]3C3CCCCC3)N2CCC23CC4CC(CC(C4)C2)C3)CC1	ATCC 10231	-	-	MIC	>64 µg/mL
CCOC(=O)c1ccc2c(c1)nc(-c1ccc(C(N)=NC(C)C)cc1)n2Cc1ccccc1	ATCC 10231	-	-	MIC	50 µg/mL
O=C1CSC(N2N=C(c3ccc([N+](=O)[O-])cc3)CC2c2cc3ccccc3nc2Cl)=N1	MTCC 227	-	-	MIC100	100 µg/mL
C1CCC(C[C@H]2CN3C(=NC[C@H]3C3CCCCC3)N2CCC23CC4CC(CC(C4)C2)C3)CC1	ATCC 10231	-	-	EC50	2.4 µg/mL
CCOC(=O)c1ccc2c(c1)nc(-c1ccc(C(=O)NN(CC)CC)cc1)n2Cc1ccccc1	ATCC 10231	-	-	MIC	50 µg/mL
CC(C)(C)C1CCC(CN2C3=NC[C@@H](C4CCCCC4)N3C[C@@H]2C2CCCCC2)CC1	ATCC 10231	-	-	MIC	18–32 µg/mL
Cn1c(-c2ccccc2)nsc1=O	-	-	-	MIC	0.13 µg/mL
COc1ccc(CCN2C3=NC[C@H](Cc4ccccc4)N3C[C@@H]2Cc2ccccc2)cc1OC	ATCC 10231	-	-	EC50	>250 µg/mL
Cc1nc(N=[N+]=[N-])c2sc(=S)n(-c3ccccc3)c2n1	DSM 70443	-	-	MIC	>200 µg/mL

The first 8 rows once more:

smiles	strain or isolate	read by	conditions	read-out	value
CC(=O)OC(CCCC12OC(C(=O)O)C(O)(C(=O)O)C(C(=O)O)(O1)C(OC(=O)CCCCCC/C=C/c1ccccc1)C2O)C(C)C/C=C/c1ccccc1	427	-	-	MIC	1.5 µg/mL
Cc1cc(O)c2c(c1)C(c1ccc3cc4c(c(O)c3c1O)C(=O)CC(C)(O)C4)c1cccc(O)c1C2=O	-	-	-	MIC	8 µg/mL
Cc1ccc(-n2c(-c3ccncc3)nsc2=O)cc1	-	-	-	MIC	0.09 µg/mL
Cc1c(O)cccc1C(=O)N[C@@H](CSc1ccccc1)[C@H](O)CN1C[C@H]2CCCC[C@H]2C[C@H]1C(=O)NC(C)(C)C	I74A	-	-	MIC	>64 µg/mL
Cc1nc2c(sc(=S)n2-c2ccccc2)c(=O)[nH]1	DSM 70443	-	-	MIC	>200 µg/mL
Nc1[nH]c(=O)ncc1F	19 strains	-	-	MIC90	0.5 µg/mL
CC1(O)CC(=O)c2c(cc3ccc(-c4c5c(c(O)c6c(O)cccc46)C(=O)CC(C)(O)C5)c(O)c3c2O)C1	-	-	-	MIC	8 µg/mL
C[C@@H]1[C@H](O)[C@@H](C)/C=C/C=C/C=C/C=C/C=C/C=C/C=C/[C@H](O[C@@H]2O[C@H](C)[C@@H](O)[C@H](N)[C@@H]2O)C[C@@H]2O[C@](O)(C[C@@H](O)C[C@@H](O)[C@H](O)CC[C@@H](O)C[C@@H](O)CC(=O)O[C@H]1C)C[C@H](O)[C@H]2C(=O)O	-	resazurin	-	EC50	0.13 µM